PubChem BioAssay AID624099 – ICCB-Longwood, 2012

- Screen: 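Host factors E2 relies on to silence an HPV18 LCR reporter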 (primary screen)
- Cell system: human C33A cervical carcinoma cells (HPV-negative) stably expressing BPV1 E2 and an HPV18 LCR luciferase reporter
- Knock-down reagent: siRNA pool against human genes, 40 nM
- Timing: 72 h
- Measured: 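HPV18 LCR reporter light per well, converted to plate-wise z-scores that exclude control wells, and averaged over triplicate plates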
- Direction: mean z-score and z-score: higher = stronger reporter signal, weaker E2 silencing
- Call rule: 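Mean z ≥ 2 together with z ≥ 2 in two or more of the three replicates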
The deposit covers about 21,000 reagents; shown is a random part of them. Of all reagents, 497 (2.4%) are marked active. 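Higher z means weaker E2 silencing; only reporter increases were scored, and knock-downs that hurt cell survival may mask genuine repressor factors.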 The numbers tell different reagents against one gene apart.

Target gene	reagent no.	mean z-score	z-score, replicate A	z-score, replicate B	z-score, replicate C	activity call
LIN54	1	1.47	1.43	1.65	1.34	inactive
LOC402072 (retired record)	1	-0.11	-0.32	0.21	-0.2	inactive
TCEAL1	1	0.98	0.75	1.53	0.65	inactive
HAPLN4	1	0.01	0.4	-0.07	-0.3	inactive
DDX27	1	-0.95	-0.74	-0.96	-1.16	inactive
CELA1	1	0.57	0.72	0.63	0.36	inactive
KLHL21	1	-0.76	-0.63	-1	-0.64	inactive
KIF18A	1	-0.43	-0.35	-0.43	-0.51	inactive
ZNF75D	1	0.34	0.66	0.19	0.17	inactive
CHAD	1	0.01	-0.21	0.06	0.18	inactive
ARHGEF9	1	1.38	1.29	1.39	1.46	inactive
UNC80	1	-1.75	-1.69	-1.94	-1.62	inactive
UNC80	2	0.17	0.13	0.19	0.2	inactive
ZNF671	1	1.64	2.35	1.84	0.73	inactive
NTN3	1	-0.66	-0.71	-0.8	-0.47	inactive
ATP8B3	1	-0.97	-0.73	-0.95	-1.24	inactive
OR5F1	1	0.81	0.83	0.81	0.79	inactive
ATPAF2	1	0.04	-0.03	-0.03	0.18	inactive
NLRC4	1	-0.59	-1.12	-0.24	-0.39	inactive
TXNRD2	1	0.41	0.47	0.2	0.57	inactive
TMEM277P	1	0.05	0.06	0.12	-0.04	inactive
GPR161	1	-1.79	-1.62	-1.68	-2.06	inactive
GDPD3	1	0.83	0.44	0.94	1.1	inactive
CHMP4B	1	-1.46	-1.58	-1.53	-1.26	inactive
DENND2D	1	0.49	0.38	0.24	0.84	inactive
APOE	1	-2.06	-1.98	-2.15	-2.05	inactive
SPHAR (retired record)	1	0.09	0.05	0.12	0.11	inactive
TMEM138	1	-0.21	0.45	-0.78	-0.29	inactive
RPL5P7	1	0.05	0.13	-0.12	0.13	inactive
DGKE	1	-0.59	-0.75	-0.14	-0.9	inactive
RTN3	1	-0.2	-0.17	-0.19	-0.23	inactive
SLC25A35	1	-0.29	-0.48	-0.51	0.1	inactive

The list goes on; the last 5 above are carried over.
Target gene	reagent no.	mean z-score	z-score, replicate A	z-score, replicate B	z-score, replicate C	activity call
TMEM138	1	-0.21	0.45	-0.78	-0.29	inactive
RPL5P7	1	0.05	0.13	-0.12	0.13	inactive
DGKE	1	-0.59	-0.75	-0.14	-0.9	inactive
RTN3	1	-0.2	-0.17	-0.19	-0.23	inactive
SLC25A35	1	-0.29	-0.48	-0.51	0.1	inactive
RPL13P12	1	-2.98	-2.68	-3.43	-2.83	inactive
CDC42EP5	1	0.2	0.19	0.67	-0.26	inactive
LINC01951	1	0.55	0.34	0.8	0.5	inactive
ACTN1	1	-0.37	-0.31	-0.29	-0.52	inactive
C10orf90	1	-0.71	-0.84	-0.75	-0.54	inactive
LOC389473	1	-1	-0.99	-0.86	-1.16	inactive
VEPH1	1	0.34	0.95	-0.05	0.12	inactive
CAMK4	1	-0.07	-0.58	0.1	0.27	inactive
TREM1	1	-1.77	-1.74	-1.78	-1.79	inactive
THRAP3	1	-0.24	-0.15	-0.34	-0.23	inactive
LOC388129 (retired record)	1	0.01	0.19	-0.01	-0.15	inactive
USP29	1	0.1	-0.02	0.06	0.27	inactive
FEN1	1	-0.03	0.03	0.1	-0.23	inactive
OR2B11	1	-0.27	0.11	-0.32	-0.59	inactive
SPO11	1	0.17	0.34	0.06	0.12	inactive
COQ4	1	-0.23	-0.69	0.19	-0.19	inactive
MOXD1	1	1.14	1.01	1.06	1.36	inactive
CERS4	1	0.07	0.43	-0.32	0.09	inactive
CASP14	1	0.45	0.64	0.22	0.48	inactive
ZNF420	1	-0.05	0.2	-0.01	-0.35	inactive
CNPY3	1	0.18	0.7	0.14	-0.31	inactive
PPP1R3G	1	-0.24	-0.21	-0.48	-0.03	inactive
PLXNA1	1	2.49	2.56	2.23	2.68	active
C1orf185	1	-0.35	-0.47	-0.29	-0.28	inactive
CFAP46	1	-0.39	-0.44	-0.31	-0.41	inactive
CFAP46	2	-0.81	-1.15	-0.78	-0.49	inactive
